Compound potency records, mixed from different reports. Data source: NIAID ChemDB in PubChem.

Common to all: tests in culture; organism: Vaccinia virus; read-out: EC50

ECn: concentration that inhibits the pathogen or its effect by n%.

| smiles | strain | cell line | value |
|---|---|---|---|
| Nc1ncnc2c1ncn2[C@@H]1O[C@H](COP(=O)(O)O[C@@H]2[C@H](O)[C@@H](COP(=O)(O)OP(=O)(O)OC[C@@H]3OC(O)[C@H](O)[C@H](O)[C@H]3O)O[C@H]2n2cnc3c(N)ncnc32)[C@@H](O)[C@H]1O |  | E6SM | 150 µg/mL |
| OC[C@H]1O[C@H](c2cncc(Br)c2)[C@@H](O)[C@@H]1O |  | E6SM | ≥100 µg/mL |
| CC1(C)[C@@H](CCO)C[C@H]1n1nnc2c(=O)[nH]c(N)nc21 |  | E6SM | 200 µg/mL |
| Cn1cc(NC(=O)c2cc(NC(=O)CN=C(N)N)cn2C)c(C(=O)NCCC(=N)N)c1 | Noguchi | BSC-1 | 25–50 µg/mL |
| N#Cc1cncc([C@H]2O[C@H](CO)[C@H](O)[C@@H]2O)c1 |  | E6SM | ≥100 µg/mL |
| CC[C@@H](O)C1=C[C@@H](n2cnc3c(N)ncnc32)[C@H](O)[C@@H]1O |  | E6SM | 7 µg/mL |
| CC1=C[C@@H](n2cnc3c(N)ncnc32)[C@H](O)[C@@H]1O |  | PRK | 0.7 µg/mL |
| NC(=O)c1cncc([C@H]2O[C@H](CO)[C@@H](O)[C@@H]2O)c1 |  | E6SM | ≥100 µg/mL |
| CC1(C)[C@@H](CCO)C[C@H]1n1cnc2c(=O)[nH]c(N)nc21 |  | E6SM | >400 µg/mL |
| COC(=O)[C@]1(C)CCC[C@]2(C)c3cc(Br)c4nc(C)[nH]c4c3CCC12 |  | E6SM | >4 µg/mL |
| CC[Si]1(C(C)C)O[C@H]2[C@@H](O)[C@H](c3ccccc3)O[C@@H]2CO[Si](C(C)C)(C(C)C)O1 |  | E6SM | >3.2 µg/mL |
| O=c1[nH]c(=O)n([C@@H]2C[C@H](CO)C[C@H]2CO)cc1I |  | E6SM | >100 µg/mL |
| NC1CCCON2CCc3c([nH]c4ccccc34)[C@H]12 |  | PRK | 2 µg/mL |
| O=c1[nH]c(=O)n([C@H]2C[C@H](O)[C@@H](CO)O2)cc1I |  | HSF | 0.2 µg/mL |
| Nc1ncnc2c1ncn2[C@@H]1C=C(CCl)[C@@H](O)[C@H]1O |  | PRK | 0.7 µg/mL |
| Nc1[nH]c(=O)ncc1F |  | VERO | >5000 µM |
| CNc1ncnc2c1cnn2Cc1cn(CCCCO)nn1 |  | E6SM | >400 µg/mL |
| COC[C@H]1O[C@@H](n2cnc3c(N)ncnc32)[C@H](O)[C@@H]1O |  | PRK | >100 µg/mL |
| O=C(Nc1nccc2c1ncn2[C@@H]1C[C@H](CO)[C@@H](O)[C@H]1O)c1ccccc1 | Lederle | L929 | 7 µg/mL |
| OC[C@H]1O[C@@H](c2cc(C#CBr)c(F)cc2F)C[C@@H]1O |  | E6SM | >400 µg/mL |
| Nc1ncnc2c1ncn2[C@@H]1C[C@H](COP(=O)(O)O)[C@@H](O)[C@H]1O |  | PRK | >400 µg/mL |
| [N-]=[N+]=NCc1cn([C@H]2C[C@H](O)[C@@H](CO)O2)c(=O)[nH]c1=O |  | HSF | >200 µg/mL |
| COC(=O)[C@]1(C)CCC[C@]2(C)c3ccc4[nH]c(C)nc4c3CCC12 |  | E6SM | >4 µg/mL |
| Nc1ncnc2c1ncn2[C@@H]1C=C(CO)[C@@H](O)[C@H]1O |  | PRK | 0.2 µg/mL |
| CON1CCc2c([nH]c3ccccc23)[C@@H]1[C@@H](N)CSC |  | PRK | >100 µg/mL |
| CO[C@H]1[C@H]2O[Si](C(C)C)(C(C)C)O[Si](C(C)C)(C(C)C)OC[C@@H]2O[C@@H]1c1ccccc1 |  | E6SM | >16 µg/mL |
| CC1(C)[C@@H](CCO)C[C@H]1n1nnc2c(Cl)nc(N)nc21 |  | E6SM | >100 µg/mL |
| Cc1ccc(Cn2cnc(=N)c3[nH]cnc32)cc1 |  | BSC-1 | >50 µg/mL |
| Nc1ncnc2c1ncn2[C@@H]1O[C@H](COP(=O)(O)O)[C@@H](O)[C@H]1O |  | E6SM | 300 µg/mL |
| CO[C@@H]1[C@H](O)[C@@H](CO)O[C@H]1c1ccccc1 |  | E6SM | >400 µg/mL |
| NC(=O)c1cncc([C@H]2O[C@H](CO)[C@H](O)[C@@H]2O)c1 |  | E6SM | ≥100 µg/mL |
| NC1CSCCN2CCc3c([nH]c4ccccc34)[C@H]12 |  | E6SM | 1 µg/mL |
| O=c1[nH]c(=O)n([C@H]2C[C@H](O)[C@@H](COP(=O)(O)O)O2)cc1/C=C/c1ccccc1 |  | PRK | 20 µg/mL |
| CC(C)Nc1ncnc2c1ncn2C1C[C@H](CO)[C@@H](CO)C1 |  | E6SM | >100 µg/mL |
| Nc1ncnc2c1ncn2[C@H]1C[C@@H](O)[C@H](O)[C@@H]1O |  | E6SM | 0.7 µg/mL |
| OCCCCn1cc(Cn2ncc3c(NCc4ccccc4)ncnc32)nn1 |  | E6SM | >400 µg/mL |
| N=c1ncn(Cc2ccco2)c2nc[nH]c12 |  | BSC-1 | >100 µg/mL |
| Nc1nc(=O)n([C@@H]2OC3COP(=O)([O-])OC3[C@H]2O)cc1F |  | VERO | 290 µM |
| Nc1ncnc2c1ncn2C1CC(COP(=O)(O)O)[C@@H](O)[C@H]1O |  | PRK | 2 µg/mL |
| N=c1ncn(Cc2ccc(Cl)cc2Cl)c2nc[nH]c12 |  | BSC-1 | >12 µg/mL |
| NC(=S)c1cncc([C@H]2O[C@H](CO)[C@@H](O)[C@@H]2O)c1 |  | E6SM | ≥100 µg/mL |
| O=c1[nH]c(=O)n([C@H]2C[C@H](O)[C@@H](CO)O2)cc1CN1CCCC1 |  | PRK | ≥200 µg/mL |
| Nc1ncnc2c1ccn2[C@@H]1C[C@H](O)[C@@H](O)[C@H]1O |  | E6SM | 0.04 µg/mL |
| COC(=O)[C@]1(C)CCC[C@]2(C)c3ccc4nc5c(nc4c3CCC12)CCCC5 |  | E6SM | >4 µg/mL |
| C=Cc1cc([C@H]2C[C@H](O)[C@@H](CO)O2)c(F)cc1F |  | E6SM | >400 µg/mL |
| Nc1ncnc2c1ncn2[C@@H]1C=C(CO)[C@@H](O)[C@H]1O |  | E6SM | 0.7 µg/mL |
| O=c1[nH]c(=O)n([C@H]2C[C@H](O)[C@@H](CO)O2)cc1I |  | PRK | 0.1 µg/mL |
| O=c1[nH]c(=O)n([C@H]2C[C@H](O)[C@@H](CO)O2)cc1I |  | PRK | 0.2 µg/mL |
| CCc1cn([C@H]2C[C@H](O)[C@@H](COP(=O)(O)O)O2)c(=O)[nH]c1=O |  | HEP-2 | 8.2 µg/mL |
| CSc1ncnc2c1cnn2Cc1cn(CCCCO)nn1 |  | E6SM | >400 µg/mL |
| Cn1cc(NC(=O)c2cc(NC(=O)c3cc(NC(=O)c4cc(NC(=O)c5cc(NC=O)cn5C)cn4C)cn3C)cn2C)cc1C(=O)NCCC(=N)N | Noguchi | BSC-1 | <10 µg/mL |
| C[C@H]1O[C@@H](c2n[nH]c(C(N)=O)c2O)[C@H](O)[C@@H]1O |  | E6SM | 5.5 µg/mL |
| Nc1nc(N)c(Cl)c(OCCOCP(=O)(O)O)n1 |  | E6SM | >1200 µM |
| N#Cc1cncc([C@H]2O[C@H](CO)[C@@H](O)[C@@H]2O)c1 |  | E6SM | ≥100 µg/mL |
| O=C(CCl)NCc1cn([C@H]2C[C@H](O)[C@@H](CO)O2)c(=O)[nH]c1=O |  | HSF | 100 µg/mL |
| COC(=O)[C@]1(C)CCC[C@]2(C)c3cc(Br)c4nc[nH]c4c3CCC12 |  | E6SM | >4 µg/mL |
| Nc1ncnc2c1ncn2[C@@H]1O[C@H](COP(=O)([O-])OP(=O)([O-])OC[C@@H]2OC(O)[C@H](O)[C@H](O)[C@H]2O)[C@@H](O)[C@H]1O |  | E6SM | 40 µg/mL |
| Nc1cc(OCCOCP(=O)(O)O)nc(N)n1 |  | E6SM | 180 µM |
| CCCc1cn([C@H]2C[C@H](O)[C@@H](COP(=O)(O)O)O2)c(=O)[nH]c1=O |  | HEP-2 | >797 µg/mL |
| OC[C@H]1CC(n2cnc3c(NC4CC4)ncnc32)C[C@@H]1CO |  | E6SM | >100 µg/mL |
| NC(=S)c1cncc([C@@H]2O[C@H](CO)[C@@H](O)[C@@H]2O)c1 |  | E6SM | ≥100 µg/mL |
| Nc1nc(=O)n([C@H]2C=C(F)[C@@H](CO)O2)cc1F |  | VERO | 5 µM |

Two numbers with a dash give a range or band. Neighbouring rows are from separate reports. Blank or dashed fields: not listed here.